Measured values from several laboratories, pooled; numbers as filed in NIAID ChemDB.

All rows: tests in culture; species: Aspergillus flavus; endpoint: zone

Blank or dashed fields: not listed here. Lines come from different laboratories, so protocols vary. Zones are inhibition diameters on agar.

compound | strain | method | dose | result
CCCCc1nc(Cl)c(-c2cc(-c3ccc(Br)cc3)nc3c2C(=O)c2ccccc2-3)n1Cc1ccccc1 | MTCC 8188 | agar diffusion | 10 µg/disc | 7 mm
[Al]#[P] | - | agar diffusion | 1 mg/mL | 16.01 mm
Cc1ccc2nc(Cl)c(CNc3ccc(Cl)c(Cl)c3)cc2c1 | MTCC 277 | agar diffusion | 200 µg/mL | 13.93 mm
CCCCc1nc(Cl)c(-c2cc(-c3ccccc3)nc3c2C(=O)c2ccccc2-3)n1Cc1ccccc1 | MTCC 8188 | agar diffusion | 10 µg/disc | 8 mm
N/N=C/c1c(O)[nH]c(=S)[nH]c1=O | - | agar diffusion / agar | 10000 µg/mL | 36 mm
CCCCc1nc(Cl)c(-c2cc(-c3cc(OC)c(OC)c(OC)c3)nc3c2C(=O)c2ccccc2-3)n1Cc1ccccc1 | MTCC 8188 | agar diffusion | 10 µg/disc | 6 mm
Cc1ccc2nc(Cl)c(CNc3cccc(Cl)c3)cc2c1 | MTCC 277 | agar diffusion | 200 µg/mL | 10.56 mm
NS(=O)(=O)c1ccc(NCc2ccc(O)c3ncccc23)cc1 | - | agar | 25 µg/mL | 32 mm
Cc1ccc2nc(Cl)c(CN3CCN(C)CC3)cc2c1 | MTCC 277 | agar diffusion | 200 µg/mL | 7.21 mm
COc1cc(C2C(C#N)=C(N)Oc3[nH]c(=S)[nH]c(=O)c32)cc(OC)c1OC | - | agar diffusion / agar | 10000 µg/mL | 0 mm
Cc1cccc(NCc2cc3cc(C)ccc3nc2Cl)c1 | MTCC 277 | agar diffusion | 200 µg/mL | 6.1 mm
Cc1cc(O)c(C(=O)/C=C/c2ccc(O)cc2)c(=O)o1 | - | agar diffusion | 125 µg/disc | 10 mm
C[C@@H]1[C@H](O)[C@@H](C)/C=C/C=C/CC/C=C/C=C/C=C/C=C/C(O[C@H]2O[C@H](C)[C@@H](O)[C@H](N)[C@@H]2O)CC2O[C@](O)(CC(O)C(O)CCC(O)CC(O)CC(O)CC(=O)O[C@H]1C)CC(O)C2C(=O)O | MTCC 8188 | agar diffusion | 10 µg/disc | 9 mm
Nc1ccc(S(=O)(=O)NNCc2ccc(O)c3ncccc23)cc1 | - | agar diffusion / agar | 25 µg/mL | 32 mm
CCCCc1nc(Cl)c(-c2cc(-c3ccco3)nc3c2C(=O)c2ccccc2-3)n1Cc1ccccc1 | MTCC 8188 | agar diffusion | 10 µg/disc | 10 mm
CCOC(=O)C1=C(N)Oc2[nH]c(=S)[nH]c(=O)c2C1c1ccc(Cl)cc1 | - | agar diffusion / agar | 10000 µg/mL | 0 mm

For reference, 2 entries again:

compound | strain | method | dose | result
Cc1ccc2nc(Cl)c(CNc3cccc(Cl)c3)cc2c1 | MTCC 277 | agar diffusion | 200 µg/mL | 10.56 mm
Cc1ccc2nc(Cl)c(CN3CCN(C)CC3)cc2c1 | MTCC 277 | agar diffusion | 200 µg/mL | 7.21 mm